For seven molecules, inhibition results are on record in PubChem BioAssay AID539 (SRMLSC, 2006).

Only a part is listed here, and it is no random draw. The source made the active and inactive calls.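 The calls were made as follows: active = top-ranked compounds by inhibition in the single 10 µM screen, taking a fixed number of the strongest; inactive = the rest, inconclusive results apart.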

The test system of the assay is phosphomevalonate kinase (Streptococcus pneumoniae D39). As to the kind of experiment: phosphomevalonate kinase enzyme inhibition – biochemical, mevalonate pathway, pilot trial included, primary screen (AID 539).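 Also: 0% = full reaction with DMSO carrier and 100% = background rate without enzyme reaction.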 Conditions: purified PMK, PK/LDH-coupled NADH absorbance 340 nm; at 10 µM; stronger effect = higher value.
The term inhibition denotes the drop in the measured response relative to a control, in per cent. Consider `N#CC1(Nc2ccccc2)CCN(CCc2ccccc2)CC1`, for which the inhibition is inactive: 3%.

With `O=C(OC1CN2CCC1CC2)C1c2ccccc2Oc2ccccc21` (configuration not stated), the inhibition was inactive: 11%.

In the case of `COc1ccc(NC2CCN(CCc3ccccc3)CC2)c(OC)c1`, the inhibition is inactive: 2%.

As for `Fc1ccccc1NC1CCN(Cc2ccccc2)CC1`, the inhibition is inactive: 15%.

For the molecule `CCC(CO)(C(=O)OC1CN2CCC1CC2)c1ccccc1` (configuration not stated), the inhibition was inactive: 17%.

For the molecule `CCOc1ncccc1C(=O)NCC1(N2CCOCC2)CCCCC1`, the inhibition was inactive: 19%.

As to `N/C(=N\O)c1c(N)no[n+]1[O-]`, the inhibition is inactive: 13%.
